Results from publication PMC5854701 (Scientific Reports, 2018).

Tested on: A/WSN/33 (H1N1)
Experiment: Antiviral plaque reduction assay
Settings: 5 µM compound; for % plaque formation at 5 µM: plaque assay

SMILES	antiviral activity in plaque assay (in words)	% plaque formation at 5 µM
O=c1[nH]c2ccccc2n1C1CCN(C(c2cccc3ccccc23)c2nnnn2C2CCCC2)CC1 (stereo not drawn)	not active	73.0% and 73.0 ± 6.5%
O=c1[nH]c2ccccc2n1C1CCN(C(c2ccsc2)c2nnnn2C2CCCCC2)CC1 (stereo not drawn)	–	73.9 ± 8.2%

Where “and” joins values, the source holds several entries; their conditions need not be identical. Equal values may be shown once. Some compounds may have been tested in ways that are not shown here.
